Here are results for one sequence from article PMC6340165, “A GntR Family Transcription Factor in Streptococcus mutans Regulates Biofilm Formation and Expression of Multiple Sugar Transporter Genes”.

The series has as its target T1, StsR (GntR family regulator) (Streptococcus mutans UA159) (UniProt Q8DTX4).
T1 sequence: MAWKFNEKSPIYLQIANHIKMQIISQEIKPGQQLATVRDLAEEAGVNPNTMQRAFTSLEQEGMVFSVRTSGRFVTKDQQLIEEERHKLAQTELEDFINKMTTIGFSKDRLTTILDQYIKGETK
The series can be described thus: EMSA. The note with it: 20 pmol DNA, 20-40 pmol StsR; 50 mM Tris/HCl, 10 mM NaCl, 0.1 mM EDTA, 5% glycerol, 30 min, 10 uL; 4% native PAGE in 0.5x TBS; recombinant protein; residues 1-123; protein details: His6 (pET28a); probe letters rebuilt from the primers and the genome. (In general: In EMSA bound probe runs differently from free probe, usually more slowly.)

On to “CTCCGTAGAGATTATCTCCATCCATAATACCAATATGCGAATAGCCCATCTCCTTAGCTTTCTTAATATAAGATTTTAAGTCAATCAGGCTATCCATAAAACTATAAACGGTTTTAGTATCTAATTGTGCAAACACTTCTGTCTCCTTAAGATCTACTTACTTTTATTATACTACAAATCCTTAAAATCCTCTTACTCTTTCATTTAATTCTACTAAATCTCATCAGTCTAAATTTACCACTTGACAATATTTTACTATAATTGTATTATATATATAACACAATTATACACTGCACTTTAGAAAGGAGAAAAAATGGCT (double strand) [stsR promoter]”, for which the binding result is “binds”.
